In US20240199535A1, “DEUTERATED DHODH INHIBITORS” (priority 2021, published 2024):

System: SARS-CoV-2
Test: Antiviral activity on SARS-CoV-2, viral replication (YFP) assay
Conditions: read-out: EC50 range

[2H]C([2H])([2H])C([2H])([2H])C([2H])([2H])C([2H])([2H])Oc1cccc(-c2cc(F)c(NC(=O)C3=C(C(=O)O)CCC3)c(F)c2)c1
EC50: < 10 µM
